Tested on: P. aeruginosa aggregate biofilms
Assay: Oxygen profiling of treated ABBA samples
Type: cell-based, Pseudomonas aeruginosa
Conditions: after 6 hr treatment

NC[C@H]1O[C@H](O[C@H]2[C@H](O)[C@@H](O[C@H]3O[C@H](CO)[C@@H](O)[C@H](N)[C@H]3O)[C@H](N)C[C@@H]2N)[C@H](N)C[C@@H]1O [tobramycin, reference compound]
oxygen concentrations at even the greatest depths (40 μg/ml tobramycin): around 50 % of atmospheric values | oxygen profile of treated aggregate biofilms (40 μg/ml tobramycin, 10 mM chlorate): never become anoxic | oxygen consumption rates for equivalent SYTO-9-stained cells (depths of 150 to 200 μm): 0.27 μM/μm
